PubChem BioAssay AID504761 – Drosophila RNAi Screening Center – 2011
The deposit covers about 22,000 reagents; shown is an unselected part of those with a known target gene and a result. Of all reagents, 116 (0.52%) got an active call. 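Calls depend on retest data that are not deposited; infection was ranked per plate without normalising between plates; the unit of the infection score is not given.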 Raw values are not corrected between plates. No sequences are given here. The record does not give: the amount of reagent, the time to read-out.

Test: 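Genome-wide fly cell screen for genes dengue virus requires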 (primary screen)
Cell system: D.Mel-2 cells from Drosophila
Knock-down reagent: long dsRNA against Drosophila genes
Conditions: infection with dengue virus type 2; dose and infection time not stated
Measured: 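Per well on two replicate plates, imaging gave the percent of cells positive for viral envelope protein, ranked by infection, and a nuclear count of cells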
Direction: infection score: higher = more virus-infected cells; cell count: higher = more cells in the well
Active means: 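Low infection ranks in the two replicates (chance level up to 0.065) followed by a retest with a 1.5-fold or larger significant decrease, p below 0.05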
Calls: active = confirmed: knock-down lowers infection; inactive = not picked or not confirmed

Against CG3792 [DRSC02725], the values are infection score, replicate 1 = 1.94; infection score, replicate 2 = 20; cell count, replicate 1 = 6172; cell count, replicate 2 = 4263; inactive. With knock-down of SCaMC [DRSC10293], the screen gave infection score, replicate 1 = 10.8; infection score, replicate 2 = 9.2; cell count, replicate 1 = 5762; cell count, replicate 2 = 6198; inactive. For SCaMC [DRSC10415], the entry reads infection score, replicate 1 = 4.7; infection score, replicate 2 = 16.8; cell count, replicate 1 = 5982; cell count, replicate 2 = 5460; inactive. Silencing of SCaMC [DRSC28518] came out at: infection score, replicate 2 = 6.81; cell count, replicate 1 = 395; cell count, replicate 2 = 2248; inactive.

2 entries from above, sorted by “cell count, replicate 2”, ascending:
SCaMC [DRSC10415]: infection score, replicate 1 = 4.7; infection score, replicate 2 = 16.8; cell count, replicate 1 = 5982; cell count, replicate 2 = 5460; activity call = inactive
SCaMC [DRSC10293]: infection score, replicate 1 = 10.8; infection score, replicate 2 = 9.2; cell count, replicate 1 = 5762; cell count, replicate 2 = 6198; activity call = inactive

Additional reagents follow.
After knock-down of NetA (Netrin-A) [DRSC20261], the screen gave infection score, replicate 1 = 5.61; infection score, replicate 2 = 4.31; cell count, replicate 1 = 6128; cell count, replicate 2 = 6519; inactive. CG11663 [DRSC23063] showed infection score, replicate 1 = 0.29; infection score, replicate 2 = 3.22; cell count, replicate 1 = 6468; cell count, replicate 2 = 6592; inactive. With knock-down of CG13829 [DRSC14679], the record shows infection score, replicate 1 = 4.96; infection score, replicate 2 = 2.09; cell count, replicate 1 = 6558; cell count, replicate 2 = 6834; inactive. For RpL30 (Ribosomal protein L30) [DRSC02087], the entry reads infection score, replicate 1 = 6.37; infection score, replicate 2 = 6.74; cell count, replicate 1 = 6075; cell count, replicate 2 = 6763; inactive. After knock-down of CG13151 [DRSC06276], the record shows infection score, replicate 1 = 8.26; infection score, replicate 2 = 4.94; cell count, replicate 1 = 6309; cell count, replicate 2 = 6918; inactive. Depletion of CG31098 [DRSC14259] resulted in: infection score, replicate 1 = 1.63; infection score, replicate 2 = 10.4; cell count, replicate 1 = 7166; cell count, replicate 2 = 4174; inactive.

Against ImpE3 (Ecdysone-inducible gene E3) [DRSC16716], the values are infection score, replicate 1 = 4.14; infection score, replicate 2 = 1.54; cell count, replicate 1 = 6792; cell count, replicate 2 = 6513; inactive. Ugt37A1 (UDP-glycosyltransferase family 37 member A1) [DRSC02114] showed infection score, replicate 1 = 4.53; infection score, replicate 2 = 5.08; cell count, replicate 1 = 6113; cell count, replicate 2 = 6463; inactive.
